The entries are a selection whose mix differs from that of the whole data set. Calls of active or inactive are those of the source.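 Rule for the calls: active = inhibition above the mean of all tested compounds plus 3 SD, cutoff set per screening run (cut at about 7.5% in these data); inactive = the rest.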
What follows are molecules tested on VIM-2 metallo-beta-lactamase (Pseudomonas aeruginosa) (assay: inhibition of VIM-2 nitrocefin hydrolysis – biochemical, epi-absorbance readout, Pseudomonas aeruginosa enzyme, primary screen (AID 1527;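 note: red hydrolysis product quenches plate fluorescence so inhibitors raise well fluorescence; 0% = enzyme with DMSO and 100% = DMSO without enzyme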)). Details: purified VIM-2, nitrocefin hydrolysis, epi-absorbance fluorescence; at 5.6 µM; stronger effect = higher value.

SMILES | inhibition
COc1ccc(C(=O)NCC2(N3CCCCC3)CCCCC2)c(OC)c1OC | inactive: -0.28%
O=C(NCC1(N2CCCCC2)CCCCC1)c1ccc(=O)[nH]c1 | inactive: -0.02%
CSc1ccccc1C(=O)NCC1(N2CCCCC2)CCCCC1 | inactive: -1.41%
COc1cc(C(=O)NCC2(N(C)C)CCCCC2)ccc1OC(F)F | inactive: -2.99%
CCOC(=O)N1CCC(Nc2cccc(C)c2)CC1 | inactive: 0.07%
Cc1ccc(OCC(C)C)c(CN(CCCl)CCCl)c1 | inactive: -2.36%
CCOc1ccc(C)cc1CN(CCCl)CCCl | inactive: 0.55%
O=C(NCC1(N2CCCCC2)CCCCC1)c1ccc(F)cc1 | inactive: -1.28%
CCOC(=O)N1CCC(Nc2ccc(F)cc2)CC1 | inactive: -1.29%
COc1ccc(NC2CCN(CCc3ccccc3)CC2)c(OC)c1 | inactive: -3.21%
O=C(NCC1(N2CCCCC2)CCCCC1)c1cccc(C(F)(F)F)c1 | inactive: -3.07%
O=C(NCC1(N2CCOCC2)CCCCC1)c1cc(=O)[nH]c2ccccc12 | inactive: 0.11%
COc1cc(C(=O)NCC2(N3CCCCC3)CCCCC2)ccc1OC(F)F | inactive: -0.91%
COc1ccc(NC2CCN(C(=O)OC(C)(C)C)CC2)cc1 | inactive: 1.76%
CN1CCN(CCOC(=O)C(O)(c2ccccc2)c2ccccc2)CC1 | inactive: -1.33%
O=C(NCC1(N2CCCCC2)CCCCC1)c1ccc(OC(F)F)cc1 | inactive: -0.79%
CCN1CCC(Nc2ccc(Cl)cc2)CC1 | inactive: -1.18%
N#CC1(Nc2ccccc2)CCN(CCc2ccccc2)CC1 | inactive: -1.85%
O=C(NCC1(N2CCCCC2)CCCCC1)c1cccc([N+](=O)[O-])c1 | inactive: -2.38%
CN1CCC(Nc2cccc(F)c2)CC1 | inactive: -4.97%
CCCOc1ccc(C(=O)NCC2(N(C)C)CCCCC2)cc1OC | inactive: -5.64%
CC(C)c1ccc(NC2CCN(C(=O)OC(C)(C)C)CC2)cc1 | inactive: -0.84%
COc1ccc(CN(CCCl)CCCl)cc1Cl | inactive: -0.17%
CN(C)c1cccc(C(=O)NCC2(N3CCCCC3)CCCCC2)c1 | inactive: 1.56%
COc1cc(OC)c(C(=O)NCC2(N(C)C)CCCCC2)cc1OC | inactive: -0.54%

From PubChem BioAssay AID1527 (The Scripps Research Institute Molecular Screening Center, 2009)
